Tested on: HIV-1NL-D
Assay: HIV-1 in vitro infection of CD4+ T cells
Format: cell-based
Conditions: treatment before infection, MOI 0.001
Description: Preparation of HIV-1 virus stocks. HIV-1 proviral DsRed-tagged DNA pNL-D (derived from the prototype HIV-1 proviral DNA pNL432) was kindly provided by Dr. Yasuko Tsunetsugu-Yokota. 293T cells were used to prepare viral stocks following published protocols with minor modifications. In brief, 293T cells were plated at 0.5×10^6/well in 12-well plates and transfected with 2 μg pNL-D using Lipofectamine 2000 (Invitrogen) for 48 hours. Culture supernatant was treated with benzonase (1U/ml) for 30 minutes at 37 C, cleared by filtration and titrated on 293T cells. Stocks were stored at −80 C.
HIV-1 in vitro infection. CD4^+ T cells were stimulated with anti-CD3 (1 μg/ml) and anti-CD28 (1 μg/ml) for 48 hours and subsequently infected with HIV-1 at a MOI of 0.001 (concentration within the physiological range). Viability and cytokine secretion was measured every 48 hours for a total of 11 days after infection.
For HIV-1 infection on TLR7-deficient cells, CD4^+ T cells were stimulated as above and transduced with the corresponding lentiviral particles. 48 hours after transduction, the cells were infected with HIV-1NL-D at a MOI of 0.001. Viability and frequency of HIV-1-infected cells were measured at different time points by LIVE/DEAD cell dye staining and fixation with 1% PFA (to avoid DsRed signal loss). […]

IL-2: IL-2 from the AIDS Research and Reference Reagent Program, added six hours before HIV-1 infection
frequency of HIV-1-infected CD4+ T cells: did not affect

— US10308938B2, “Compositions and methods to activate or inhibit toll-like receptor signaling” (priority 2014, dated 2019)
